{"source": "patent US6989263B1", "about": "“Method for identifying and using compounds that inactivate HIV-1 and other retroviruses by attacking highly conserved zinc fingers in the viral nucleocapsid protein” (The United States of America as represented by the …, priority 1994, dated 2006)", "tested_on": "HIV-1MN", "experiment": "Effect of NOBA on intact HIV-1MN (p24, zinc, TCIU of pelleted virus)", "format": "cell-based", "settings": "2 hours", "data": [{"compound": "NC(=O)c1cccc(N=O)c1", "note": "[NOBA, 3-nitrosobenzamide]", "values": [{"measurement": "p24", "setting": "NOBA 0.03 mM", "result": 90, "unit": "µg/mL"}, {"measurement": "p24", "setting": "NOBA 0.3 mM", "result": 83, "unit": "µg/mL"}, {"measurement": "p24", "setting": "NOBA 3.0 mM", "result": 58, "unit": "µg/mL"}]}]}
